Measurements: article PMC5034337 (Scientific Reports, 2016)

How the values were obtained:
mammalian ribosomes = conditions: read-out: IC50, inhibition of in vitro translation (production of the reporter protein reduced to 50%); rabbit reticulocyte lysate, six independent experiments
[1] = first morning urine, Croatian pregnant women; cited from earlier work
[2] = test system: primary human colon epithelial cells (HCEC-1CT); experiment: Sulforhodamine B (SRB) assay, HCEC-1CT; conditions: 24 h
T24 bladder cancer cells = experiment: Sulforhodamine B (SRB) assay, T24; conditions: T24, 24 h
Caco-2 cells = experiment: Sulforhodamine B (SRB) assay, Caco-2; conditions: Caco-2, 24 h
[3] = Eight-day duplicate diet case study, 24 h urine of one volunteer (LC-MS/MS)
[4] = test system: HT-29 colon carcinoma cells; experiment: Sulforhodamine B (SRB) assay, HT-29; conditions: HT-29, 24 h
HT-29 cells = experiment: Cellular metabolism (deconjugation) in HT-29 cells, LC-MS/MS of supernatant and cell lysate; conditions: HT-29 cells incubated with 10 μM for 0, 3, 24 and 48 h
wheat ribosomes = conditions: read-out: IC50 on wheat ribosomes; cited from earlier work
[5] = Average of days 3-6, as DON equivalents

With `CC1=C[C@H]2O[C@@H]3[C@H](O)C[C@](C)([C@@]2(CO)[C@H](O)C1=O)[C@]31CO1` [DON, deoxynivalenol] as the compound, how does the IC50 (mammalian ribosomes) read?
The IC50 was 1.5 µM.

Which maximum urinary concentration [1] does the source give for DON-3-glucuronide here?
Its maximum urinary concentration is 298 µg/L.

Which maximum urinary concentration (first morning urine, Croatian pregnant women, n = 40) does the source give for `CC1=CC2OC3C(OS(=O)(=O)O)CC(C)(C34CO4)C2(CO)C(O)C1=O` (centres unmarked) here?
Its maximum urinary concentration is 58 µg/L.

And the “share of urine samples in which the conjugate was quantified” value (first morning urine, Croatian pregnant women, n = 40 (28 out of 40))?
The value was 70%.

What about the maximum urinary concentration (first morning urine, Croatian pregnant women, corresponds to 58 μg/L) of the same compound?
The maximum urinary concentration was 0.15 µM.

What about the “cytotoxic effect” value [2] of the same compound?
Its value is “did not exert cytotoxic effects”.

What about the “lowest concentration at which the proliferative effect was present” value [2] of the same compound?
Its value is 0.1 nM.

What about the “cytotoxic effect” value (T24 bladder cancer cells) of the same compound?
The value was “did not exert cytotoxic effects”.

And the “lowest concentration at which the proliferative effect was present” value (T24 bladder cancer cells)?
Its value is 0.1 nM.

What about the “cytotoxic effect” value (Caco-2 cells) of the same compound?
Its value is “did not exert cytotoxic effects”.

What about the “proliferative stimulus” value (Caco-2 cells) of the same compound?
The value was “not significant”.

What about the “DON-3-sulfate excreted per day” value ([3]; Average of days 3-6) of the same compound?
Its value is 0.02 µmol/day.

What about the “DON-3-sulfate excreted per day” value [3, 5] of the same compound?
Its value is 4.9 µg/day.

What about the DON-3-sulfate in urine [3, 5] of the same compound?
Its DON-3-sulfate in urine is 2.1 µg/L.

What about the “DON-3-sulfate excreted per day” value ([3]; Day 3) of the same compound?
Its value is 0.02 µmol/day.

And the DON-3-sulfate in urine ([3]; Day 3, high DON diet 138 μg/d, as DON equivalents)?
The DON-3-sulfate in urine was 2.8 µg/L.

And the “DON-3-sulfate excreted per day” value ([3]; Day 3, as DON equivalents)?
Its value is 6.0 µg/day.

And the “DON-3-sulfate excreted per day” value ([3]; Day 4)?
Its value is 0.01 µmol/day.

And the DON-3-sulfate in urine ([3]; Day 4, high DON diet 138 μg/d, as DON equivalents)?
The DON-3-sulfate in urine was 1.0 µg/L.

And the “DON-3-sulfate excreted per day” value ([3]; Day 4, as DON equivalents)?
The value was 2.8 µg/day.

What about the “DON-3-sulfate excreted per day” value ([3]; Day 5) of the same compound?
The value was 0.02 µmol/day.

What about the DON-3-sulfate in urine ([3]; Day 5, high DON diet 138 μg/d, as DON equivalents) of the same compound?
The DON-3-sulfate in urine was 2.2 µg/L.

What about the “DON-3-sulfate excreted per day” value ([3]; Day 5, as DON equivalents) of the same compound?
Its value is 4.8 µg/day.

And the “DON-3-sulfate excreted per day” value ([3]; Day 6)?
The value was 0.02 µmol/day.

And the DON-3-sulfate in urine ([3]; Day 6, high DON diet 138 μg/d, as DON equivalents)?
The DON-3-sulfate in urine was 2.3 µg/L.

And the “DON-3-sulfate excreted per day” value ([3]; Day 6, as DON equivalents)?
The value was 5.9 µg/day.

And the DON-3-sulfate in urine ([3]; Day 7, first day after DON diet was stopped, as DON equivalents)?
The DON-3-sulfate in urine was “absence”.

And the “urinary 24 h excretion rate, of the DON quantity ingested through contaminated food” value ([3]; volunteer, 138 μg DON per day over four days, estimate in text)?
The value was “approximately 4%”.

And the “cytotoxic effect” value [4]?
Its value is “did not exert cytotoxic effects”.

And the IC50 (mammalian ribosomes)?
The IC50 was over 100 µM.

And the “free DON formed by hydrolysis of the conjugate” value (HT-29 cells)?
The value was “neither detected in the supernatant nor in the cell lysate”.

For `CC1=CC2OC3C(O)CC(C)(C34CO4)C2(COS(=O)(=O)O)C(O)C1=O` (centres unmarked), which “detection in urine samples” value (Croatian urine samples) is on record?
Its value is “no DON-15-sulfate was detected in any sample”.

And the “cytotoxic effect” value (T24 bladder cancer cells)?
Its value is “only a limited effect”.

What about the “proliferative stimulus” value (Caco-2 cells) of the same compound?
Its value is “not significant”.

And the IC50 (wheat ribosomes)?
The IC50 was 66 µM.

And the IC50 (mammalian ribosomes)?
Its IC50 is 47 µM.

What about the “free DON formed by hydrolysis of the conjugate” value (HT-29 cells) of the same compound?
The value was “neither detected in the supernatant nor in the cell lysate”.

With DON-15-glucuronide as the compound, how does the maximum urinary concentration [1] read?
The maximum urinary concentration was 1238 µg/L.

Where two headings read alike, the source gives them in different places.
